PubChem BioAssay AID1259414, Drosophila RNAi Screening Center, 2018
The screen tested about 24,000 reagents; shown is a random part of those with a known target gene and a result. Over the whole deposit, about 1,210 (5%) got an active call. 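Inactive calls also include excluded dsRNAs with several or no targets, genes unexpressed in JW18, and well A1, regardless of score.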 A number with no mark means an inactive call. Reagents against one gene are numbered here. A plus sign joins genes that one reagent is predicted to hit. No sequences are given here.

- Test: 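Host factors increasing or decreasing Wolbachia levels in cultured fly cells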 (primary screen)
- Cell system: Drosophila JW18 cells infected with Wolbachia
- Knock-down reagent: long dsRNA against Drosophila genes, 0.25 µg dsRNA per well of a 384-well plate
- Timing: 5 days
- Challenge: cells persistently infected with Wolbachia before knock-down; no added drug
- Measured: 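Automated imaging of bacterial rRNA staining divided by host cell count, reported as plate-normalised robust z-score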
- Reading the numbers: Wolbachia per cell robust z: higher = more Wolbachia per host cell than the plate typical
- Rule for the call: 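Active if absolute robust z reaches 1.5 in two or more of three replicates, leaving out multi- or no-target dsRNAs, genes unexpressed in JW18 and A1 wells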

Knock-down of dgo #1 resulted in: Wolbachia per cell robust z, rep 1 = -0.286; Wolbachia per cell robust z, rep 2 = -0.886; Wolbachia per cell robust z, rep 3 = -4.29.
Knock-down of dgo #2 gave: Wolbachia per cell robust z, rep 1 = 0.518; Wolbachia per cell robust z, rep 2 = 1.4; Wolbachia per cell robust z, rep 3 = 1.35.
CG18538 gave Wolbachia per cell robust z, rep 1 = -1.22; Wolbachia per cell robust z, rep 2 = -5.06; Wolbachia per cell robust z, rep 3 = 0.544.
With knock-down of CG31609, the screen gave Wolbachia per cell robust z, rep 1 = 0.311; Wolbachia per cell robust z, rep 2 = -0.0112; Wolbachia per cell robust z, rep 3 = -0.265.
Against CG13197 the deposit lists Wolbachia per cell robust z, rep 1 = -0.21; Wolbachia per cell robust z, rep 2 = 0.187; Wolbachia per cell robust z, rep 3 = 0.488.
For CG14856 the deposit lists Wolbachia per cell robust z, rep 1 = -0.188; Wolbachia per cell robust z, rep 2 = -0.329; Wolbachia per cell robust z, rep 3 = -1.03.
For Cpr78Ca the deposit lists Wolbachia per cell robust z, rep 1 = -1.49; Wolbachia per cell robust z, rep 2 = -1.58; Wolbachia per cell robust z, rep 3 = -0.00626.
For Mocs2B + Mocs2A #1 the deposit lists Wolbachia per cell robust z, rep 1 = -2.12; Wolbachia per cell robust z, rep 2 = -0.238; Wolbachia per cell robust z, rep 3 = -0.812.
For Mocs2B + Mocs2A #2 the deposit lists Wolbachia per cell robust z, rep 1 = 0.396; Wolbachia per cell robust z, rep 2 = 0.0668; Wolbachia per cell robust z, rep 3 = -0.0773.
Depletion of CG14540 #1 came out at: Wolbachia per cell robust z, rep 1 = 1.23; Wolbachia per cell robust z, rep 2 = 1.27; Wolbachia per cell robust z, rep 3 = 1.15.
CG14540 #2 gave Wolbachia per cell robust z, rep 1 = -0.0195; Wolbachia per cell robust z, rep 2 = -0.354; Wolbachia per cell robust z, rep 3 = 0.494.
Against CG14540 #3 the deposit lists Wolbachia per cell robust z, rep 1 = 0.127; Wolbachia per cell robust z, rep 2 = 0.271; Wolbachia per cell robust z, rep 3 = -2.79.
CG33770 scored Wolbachia per cell robust z, rep 1 = -1.09; Wolbachia per cell robust z, rep 2 = -1.04; Wolbachia per cell robust z, rep 3 = -0.955.
Knock-down of CG32750 came out at: Wolbachia per cell robust z, rep 1 = -1.14; Wolbachia per cell robust z, rep 2 = -1.08; Wolbachia per cell robust z, rep 3 = -2.57.
After knock-down of Neu2 #1 the results were Wolbachia per cell robust z, rep 1 = -0.332; Wolbachia per cell robust z, rep 2 = -8.98; Wolbachia per cell robust z, rep 3 = 0.0765.
Against Neu2 #2, the entry reads Wolbachia per cell robust z, rep 1 = 0.57; Wolbachia per cell robust z, rep 2 = 0.743; Wolbachia per cell robust z, rep 3 = 0.241.
After knock-down of CG12343, the screen gave Wolbachia per cell robust z, rep 1 = 1.12; Wolbachia per cell robust z, rep 2 = 0.0464; Wolbachia per cell robust z, rep 3 = -0.362.
Against rumpel the deposit lists Wolbachia per cell robust z, rep 1 = 0.814; Wolbachia per cell robust z, rep 2 = -2.94; Wolbachia per cell robust z, rep 3 = 0.269.
asRNA:CR43470 + CG14830 showed Wolbachia per cell robust z, rep 1 = 0.804; Wolbachia per cell robust z, rep 2 = -3.77; Wolbachia per cell robust z, rep 3 = 0.506.
With knock-down of CG7071 + Muted, the record shows Wolbachia per cell robust z, rep 1 = 0.205; Wolbachia per cell robust z, rep 2 = -1.78; Wolbachia per cell robust z, rep 3 = -0.721.
Against l(2)09851, the values are Wolbachia per cell robust z, rep 1 = 1.01; Wolbachia per cell robust z, rep 2 = -0.142; Wolbachia per cell robust z, rep 3 = 1.08.
Depletion of red came out at: Wolbachia per cell robust z, rep 1 = 0.535; Wolbachia per cell robust z, rep 2 = 1.18; Wolbachia per cell robust z, rep 3 = 2.4.
Against lncRNA:CR32111, the values are Wolbachia per cell robust z, rep 1 = -0.164; Wolbachia per cell robust z, rep 2 = 0.539; Wolbachia per cell robust z, rep 3 = -0.596.
For skl the deposit lists Wolbachia per cell robust z, rep 1 = 0.989; Wolbachia per cell robust z, rep 2 = -1.21; Wolbachia per cell robust z, rep 3 = 1.26.
